# Values joined by “and” are separate entries in the source; they are usually repeats but may differ in a detail not shown here. Identical values can stand only once.
# System: latent HIV-1
# Assay: HIV-1 latency reversal activity, GFP expression of J-Lat 10.6 cells
# Format: cell-based
# Conditions: compared to crotignoid K (13)
# Protocol: Figure 1 HIV-1 latency reversal activity of methanolic crude extract (EU), partitioned n-hexane (EU-H), dichloromethane (EU-C), ethyl acetate (EU-E), and water-soluble residue (EU-W) phases. (A) dose-response experiments conducted with Jurkat T cells that were latently infected with full-length HIV-1 reporter construct (J-Lat 10.6 cells), HIV-1 reactivation quantified as % of positive control (PMA); (B) cell viability of each sample at 10, 50, 100, 500, and 1000 μg/mL.
# Jurkat cells with a full-length integrated HIV-1 provirus that have been modified to contain a GFP coding region in place of the env gene (J-lat 10.6 cells) were used for HIV-1 anti-latency activity, cytotoxicity, and cellular activation testing. All 31 compounds were tested at 1, 10, and 100 μM. […] These compounds were further tested at additional concentrations to determine dose response and toxicity curves (Figure 5A–F). Cell viability for all isolated compounds is presented in Figure S106 in the supplementary material.
# The HIV-1-infected Jurkat T cell line (J-Lat 10.6) was obtained in January 2019 from the NIH/ATCC HIV-1 Reagent Program (www.hivreagentprogram.org) and cultured in RPMI-based media supplemented with 10% fetal calf serum, 1% penicillin, and 1% streptomycin. […]
compound,measurement,value
"CC(=O)O[C@@]12[C@H](OC(=O)c3ccccc3)[C@@H](C)[C@]3(O)[C@@H]4C=C(C)C(=O)[C@H]4CC(CO)=C[C@H]3[C@@H]1C2(C)C [Compound 14, 4β-Crotignoid K]","fold difference in EC50 of latency reversal, 14 versus 13",250 fold and ~ 250 fold

# From PMC8308672, “Bioactive Compounds from Euphorbia usambarica Pax. with HIV-1 Latency Reversal Activity” (Pharmaceuticals, 2021)
